Anti-infective test results gathered from many reports (values: NIAID ChemDB through PubChem).

Common to all: whole-cell or culture tests; agent: Mycobacterium tuberculosis

Blank or dashed fields: not listed here. MIC bound comes from a single tested concentration. Inhibition is in % at the dose shown (toxicity tests: loss of growth or viability). Rows are shuffled and stem from different studies. MIC50, MIC90 and the like: level of inhibition, or share of isolates inhibited.

SMILES,tested at,changes,read by,setting,strain,measure,result
NC(=O)c1cnccn1,-,-,-,-,Isolate 97-983,MIC,100 µg/mL
CO[C@H]1/C=C/O[C@@]2(C)Oc3c(C)c(O)c4c(O)c(c(C=O)c(O)c4c3C2=O)NC(=O)/C(C)=C\C=C\[C@H](C)[C@H](O)[C@@H](C)[C@@H](O)[C@@H](C)[C@H](OC(C)=O)[C@@H]1C,-,-,-,-,H37Rv,MIC,0.1 µg/mL
O=NNc1ccc(Cl)cn1,-,-,BACTEC,-,H37Rv,MIC,≥12.5 µg/mL
OC1/C=C\C=C/CN2CC3C=C4CCCCCCCCCC/C=C\CCN5CCC3C(C1)(C5)C42,-,-,-,-,-,MIC,8 µg/mL
CCS/C(N)=N\N=C\c1cccnc1,-,-,-,-,ATCC 35822 (isoniazid-resistant),MIC,>100 µg/mL
O=C(CNc1ccc(Cl)cc1)Sc1nnc(-c2ccncc2)o1,0.1735 µM,-,BACTEC / radiometric,-,H37Rv (ATCC 27294),inhibition,28%
Cc1cn2c(C(=O)NCc3cccc(F)c3)c(C)nc2s1,-,-,resazurin / fluorescence,-,H37Rv,MIC,<0.195 µM
CCN1CCN(c2c(F)cc3c(=O)c(C(=O)O)cn(C4CC4)c3c2OC)CC1,-,-,-,-,H37Rv,MIC,0.39 µg/mL
CCCCOc1ccc(NC(=S)Nc2ccc(N(C)C)cc2)cc1,-,-,-,-,H37RV #302,MIC,2 µg/mL
O=C(CNC1=NCCN1)Nc1ccc(NC(=O)c2ccc(C(=O)Nc3ccc(NC(=O)CNC4=NCCN4)cc3)cc2)cc1,-,-,resazurin,-,H37Rv,MIC,12.5 µg/mL
C/C(=C\C(=O)O)CC[C@@H]1[C@@]2(CC[C@@H]3C(C)(C)CCC[C@]31C)CO2,-,-,resazurin,-,-,MIC,25 µg/mL
O=C(c1ccc(-c2ccc(Br)cc2)cc1)c1ccc([N+](=O)[O-])cc1,-,-,-,-,ATCC 27294,MIC,≤2 µg/mL
CN1CCN(c2cc3c(cc2F)C(=O)c2nc4ccccc4c(=O)n2-3)CC1,-,-,-,-,H37Rv,MIC,10 µg/mL
CO[C@H]1/C=C/O[C@@]2(C)Oc3c(C)c(O)c4c(O)c(c(C=O)c(O)c4c3C2=O)NC(=O)/C(C)=C\C=C\[C@H](C)[C@H](O)[C@@H](C)[C@@H](O)[C@@H](C)[C@H](O)[C@@H]1C,-,-,-,-,H37Rv,MIC,2 µg/mL
Cc1c(N=Nc2ccc(Br)cc2)c(-c2ccccc2)nn1C(=S)S,-,-,-,-,ETA-R,MIC,12.5 µg/mL
NNC(=O)c1ccncc1,-,-,-,-,Ravenel #226,MIC,<0.5 µg/mL
O[C@]12CCCCCC[C@@H]3CCN4CCC[C@](O)(CCCCCC[C@@H]5CCN(CCC1)[C@H]2O5)[C@@H]4O3,-,-,-,-,-,MIC,3.94 µg/mL
O=C1NC(=O)C2(CCCc3ccc([N+](=O)[O-])cc32)N1,-,-,resazurin,-,H37Rv,MIC bound,>6.25 µg/mL
Cc1cccc2nc3n(c(=O)c12)-c1ccccc1C3=O,-,-,-,-,H37Rv,MIC,2 µg/mL
Cc1cn2c(C(=O)NCc3ccc(N4CCN(c5ccc(C(F)(F)F)cn5)CC4)c(F)c3)c(C)nc2s1,-,QcrB1 A317V,resazurin / fluorescence,-,H37Rv,MIC,0.6 µM
O=C1c2cc(Br)ccc2-n2c1nc1ccccc1c2=O,-,-,-,-,H37Rv,MIC,<0.2 µg/mL
CCOC(=O)c1c(N)sc2sc(-c3ccc(C)cc3)cc12,-,-,-,multidrug-resistant,MDR-TB,MIC,4.9 µM
CCC1CN2CCc3cc(OC)c(OC)cc3C2CC1CC1c2cc(OC)c(OC)cc2CCN1C(=O)C1CCCN1C(=O)OCc1ccccc1,-,-,BACTEC,-,H37Rv,MIC bound,>12.5 µg/mL
CN1CCN(c2cccc3nc4n(c(=O)c23)-c2ccc(F)cc2C4=O)CC1,-,-,-,-,H37Rv,MIC,5 µg/mL
Cc1cn2c(C(=O)NCc3ccc(N4CCC(c5ccc(OC(F)(F)F)cc5)CC4)cc3)c(C)nc2s1,-,QcrB4 A396T,resazurin / fluorescence,-,H37Rv,MIC,<0.024 µM
O=C(CNc1ccccc1)Sc1nnc(-c2ccncc2)o1,0.0354 µM,-,BACTEC / radiometric,-,H37Rv (ATCC 27294),inhibition,64%
CS(=O)(=O)c1ccc(C(=O)c2ccc(-c3ccc(Br)cc3)cc2)cc1,-,-,-,-,ATCC 27294,MIC,8 µg/mL
Clc1ccc(OCc2nnc3n2N=C(c2ccccc2)CS3)cc1,-,-,BACTEC,-,H37Rv,MIC bound,>12.5 µg/mL
CO[C@H]1/C=C/O[C@@]2(C)Oc3c(C)c(O)c4c(O)c(c(C=Nc5ccccc5)c(O)c4c3C2=O)NC(=O)/C(C)=C\C=C\[C@H](C)[C@H](O)[C@@H](C)[C@@H](O)[C@@H](C)[C@H](O)[C@@H]1C,-,-,-,-,H37Rv,MIC,1 µg/mL
COc1cc2c(cc1O)CCN[C@]21CS[C@@H]2c3c(C(C)=O)c(C)c4c(c3C(COC1=O)N1C2[C@H]2c3c(cc(O)c(OC)c3O)C[C@@H]([C@@H]1C#N)N2C)OCC4,-,-,-,-,-,MIC,0.13 µg/mL
CC(=O)N[C@H]1[C@@H](O[C@@H]2O[C@H](C[C@@H](O)[C@H]3O[C@@H](n4ccc(=O)[nH]c4=O)[C@H](O)[C@@H]3O)[C@H](O)[C@H](O)[C@H]2NC(=O)/C=C/CC(C)C)O[C@H](CO)[C@@H](O)[C@@H]1O,-,-,-,-,PZA-R,MIC,1.6 µg/mL
CC1CN(c2cc3c(cc2F)c(=O)c(C(=O)O)cn3C(C)(C)C)CCN1,-,-,-,-,H37Rv,MIC,0.39 µg/mL
CCOC(=O)c1c(N)sc2sc(-c3ccc(Cl)cc3Cl)cc12,-,-,-,-,H37Rv,MIC,8.4 µM
Cc1cn2c(C(=O)NCc3ccc(C(F)(F)F)cc3)c(C)nc2s1,-,-,luminescence,-,H37Rv,MIC,18.6 µM
O=C(c1ccc(I)cc1)c1ccc(-c2ccc(Br)cc2)cc1,-,-,-,-,ATCC 27294,MIC,≥32 µg/mL
Cc1nn(C(=S)S)c(C)c1N=Nc1cccc(F)c1,-,-,BACTEC,-,H37Rv,MIC,32 µg/mL
COC(=O)CC[C@@H](C)[C@H]1CCC2C3C(C[C@H](O)[C@@]21C)[C@@]1(C)CC[C@H](n2cc(CNCCCNc4ccnc5cc(Cl)ccc45)nn2)C[C@H]1C[C@H]3O,-,-,resazurin,-,H37Rv,MIC90,17.3 µM
CCCc1cc(=O)oc2c3c(c4c(c12)OC(C)(C)C=C4)O[C@@H](C)[C@H](C)[C@@H]3O,-,-,BACTEC,-,H37Rv,MIC,<12.5 µg/mL
CCOC(=O)c1c(N)sc2sc(-c3ccc(Cl)cc3)cc12,-,-,-,multidrug-resistant,MDR-TB,MIC,18.5 µM
CO[C@H]1/C=C/O[C@@]2(C)Oc3c(C)c(O)c4c(O)c(c(/C=N/N5CCN(C)CC5)c(O)c4c3C2=O)NC(=O)/C(C)=C\C=C\[C@H](C)[C@H](O)[C@@H](C)[C@@H](O)[C@@H](C)[C@H](OC(C)=O)[C@@H]1C,-,-,-,-,H37Rv,MIC,0.5 µg/mL
CCN(CC)c1ccc2nc3c4ccccc4c(=NC(=O)c4ccccc4-c4c5ccc(N(CC)CC)cc5[o+]c5cc(N(CC)CC)ccc45)cc-3oc2c1.[Cl-],-,-,-,-,RMP-R,MIC,1.6 µg/mL
CO[C@H]1/C=C/O[C@@]2(C)Oc3c(C)c(O)c4c(O)c(c(/C=N/N5CCOCC5)c(O)c4c3C2=O)NC(=O)/C(C)=C\C=C\[C@H](C)[C@H](O)[C@@H](C)[C@@H](O)[C@@H](C)[C@H](OC(C)=O)[C@@H]1C,-,-,-,-,H37Rv,MIC,0.2 µg/mL
C=C1C(=O)O[C@@H]2CCN3CC=C(COC(=O)[C@@](C)(O)[C@]4(CO4)[C@@H]1C)[C@H]23,-,-,BACTEC,-,H37Rv,MIC,≥12.5 µg/mL
CO[C@H]1/C=C/O[C@@]2(C)Oc3c(C)c(O)c4c(O)c(c(/C=N/N5CCN(C)CC5)c(O)c4c3C2=O)NC(=O)/C(C)=C\C=C\[C@H](C)[C@H](O)[C@@H](C)[C@@H](O)[C@@H](C)[C@H](O)[C@@H]1C,-,-,-,-,H37Rv,MIC,0.05 µg/mL
C[C@@]12CCC[C@@](C)(C(=O)O)[C@H]1CC[C@]13CC(=O)[C@@H](CC[C@H]12)C3,-,-,resazurin,-,-,MIC,100 µg/mL
NC(=O)c1n[nH]c([C@@H]2O[C@H](COP(=O)(O)O)[C@@H](O)[C@H]2O)n1,-,-,BACTEC,-,H37Rv,MIC bound,>12.5 µg/mL
Cc1ccccc1NCC(=O)Sc1nnc(-c2ccncc2)o1,0.113 µM,-,BACTEC / radiometric,-,H37Rv (ATCC 27294),inhibition,63%
CCCCS/C(N)=N\N=C\c1ccnnc1,-,-,-,-,ATCC 35822 (isoniazid-resistant),MIC,12.5 µg/mL
C[C@@]12CCC[C@@](C)(C(=O)O)[C@H]1CC[C@@]13C[C@H](CC[C@H]12)[C@@]1(CO1)C3,-,-,resazurin,-,-,MIC,100 µg/mL
CCOC(=O)c1nc2c(C)nc(N)nc2[nH]c1=O,12.5 µg/mL,-,BACTEC,-,H37Rv,inhibition,0%
Cc1ccc(-c2cc3c(C#N)c(N)sc3s2)cc1,-,-,-,multidrug-resistant,MDR-TB,MIC,23.1 µM
O=C1c2cc(F)ccc2-n2c1nc1ccccc1c2=O,-,-,-,-,MDR 10038,MIC,<1 µg/mL
COc1ccc(/C=C2\N=C(c3ccccc3)N(Nc3nnc(NN4C(=O)/C(=C\c5ccc(OC)cc5)N=C4c4ccccc4)c4ccccc34)C2=O)cc1,12.5 µg/mL,-,BACTEC,-,H37Rv,inhibition,93%
O=C(CNc1cccc([N+](=O)[O-])c1)Sc1nnc(-c2ccncc2)o1,-,-,broth dilution / resazurin,-,H37Rv (ATCC 27294),MIC99,5.92 µg/mL
COc1cccc2c(=O)n3c(nc12)C(=O)c1cc(F)ccc1-3,-,-,-,-,H37Rv,MIC,<0.3 µg/mL
O=C(O)c1c(Cl)c(Cl)c(Cl)c(Cl)c1-c1c2cc(I)c(=O)c(I)c-2oc2c(I)c(O)c(I)cc12,-,-,BACTEC,-,H37Rv,MIC bound,>12.5 µg/mL
C[C@@H]1CN(c2nc3c(cc2F)c(=O)c(C(=O)O)cn3C(C)(C)C)C[C@H](C)N1,-,-,-,-,H37Rv,MIC,0.78 µg/mL
CN1CCN(c2ccc3c(=O)n4c(nc3c2)C(=O)c2cc(F)ccc2-4)CC1,-,-,-,-,H37Rv,MIC,1 µg/mL
O=C(CNc1ccc([N+](=O)[O-])cc1)Sc1nnc(-c2ccncc2)o1,-,-,broth dilution / resazurin,-,H37Rv (ATCC 27294),MIC99,6 µg/mL
COc1cc2c(cc1O)CCN[C@]21CS(=O)[C@@H]2c3c(C(C)=O)c(C)c4c(c3C(COC1=O)N1C2[C@H]2c3c(cc(O)c(OC)c3O)C[C@@H]([C@@H]1C#N)N2C)OCC4,-,-,-,-,-,MIC,2 µg/mL
CCOC(=O)c1c(N)sc2sc(-c3ccc(C(C)C)cc3)cc12,-,-,-,multidrug-resistant,MDR-TB,MIC,2.3 µM
O=C(Cc1ccccc1)NNc1nc(NNC(=O)c2ccncc2)nc(Nc2cccc(Cl)c2)n1,0.5 µM,-,BACTEC,-,-,inhibition,0%
CCN(CC)Cc1c2c(O)c3c(O)c(C)c4c(c3c1O)C(=O)[C@@](C)(O/C=C/[C@H](OC)[C@@H](C)[C@@H](OC(C)=O)[C@H](C)[C@H](O)[C@H](C)[C@@H](O)[C@@H](C)/C=C/C=C(/C)C(=O)N2)O4,-,-,-,-,H37Rv,MIC,0.2 µg/mL
COc1cc2c(cc1OC)CN1CCc3cc(OC)c(OC)cc3[C@@H]1C2,-,-,BACTEC,-,H37Rv,MIC,128 µg/mL
Cc1cccn2c(=O)c3cc(C(=O)NCc4ccco4)c(=N)n(CCCO)c3nc12,-,-,-,-,H37Rv (ATCC 27294),MIC,110 µM
O=C(O)c1ccc(-c2c3ccc(=O)cc-3oc3cc(O)ccc23)c(C(=O)O)c1,-,-,BACTEC,-,H37Rv,MIC bound,>12.5 µg/mL
CCOc1ccc(NC(=S)Nc2ccc(OCC(C)C)cc2)cc1,-,-,-,-,76,MIC,16.6 µg/mL
COC(=O)Nc1nc2cc(Cl)c(Cl)cc2[nH]1,-,-,BACTEC,-,H37Rv,MIC bound,>12.5 µg/mL
Cc1ccc(NCC(=O)Sc2nnc(-c3ccncc3)o2)cc1,0.1133 µM,-,BACTEC / radiometric,-,H37Rv (ATCC 27294),inhibition,64%
O=C(Nc1ccc(CSc2ccc(Cl)cc2)o1)N1CCOCC1,-,-,BACTEC,-,H37Rv,MIC,≥12.5 µg/mL
C[C@@H]1CCC([C@@H](C)C(=O)OCCO)[C@@]23OO[C@@](C)(CCC12)O3,-,-,resazurin,-,H37Ra,MIC,12.5 µg/mL
Cc1nnc2sc3c(Cl)c4nn5c(C)nnc5sc4c(Cl)c3nn12,-,-,BACTEC,-,H37Rv,MIC,≥12.5 µg/mL
CC(C)(C)n1cc(C(=O)O)c(=O)c2cc(F)c(N3CCC(N)C3)nc21,-,-,-,-,H37Rv,MIC,12.5 µg/mL

The last 5 rows once more:

{"SMILES": "Cc1ccc(NCC(=O)Sc2nnc(-c3ccncc3)o2)cc1", "tested at": "0.1133 µM", "read by": "BACTEC / radiometric", "strain": "H37Rv (ATCC 27294)", "measure": "inhibition", "result": "64%"}
{"SMILES": "O=C(Nc1ccc(CSc2ccc(Cl)cc2)o1)N1CCOCC1", "read by": "BACTEC", "strain": "H37Rv", "measure": "MIC", "result": "≥12.5 µg/mL"}
{"SMILES": "C[C@@H]1CCC([C@@H](C)C(=O)OCCO)[C@@]23OO[C@@](C)(CCC12)O3", "read by": "resazurin", "strain": "H37Ra", "measure": "MIC", "result": "12.5 µg/mL"}
{"SMILES": "Cc1nnc2sc3c(Cl)c4nn5c(C)nnc5sc4c(Cl)c3nn12", "read by": "BACTEC", "strain": "H37Rv", "measure": "MIC", "result": "≥12.5 µg/mL"}
{"SMILES": "CC(C)(C)n1cc(C(=O)O)c(=O)c2cc(F)c(N3CCC(N)C3)nc21", "strain": "H37Rv", "measure": "MIC", "result": "12.5 µg/mL"}